{"source": "patent US20240117011A1", "about": "(US Dept. of Health and Human Services, published 2024)", "molecular_target": "full-length spike B.1.617.2 (SARS-CoV-2, UniProt P0DTC2 13-1273)", "experiment": "flow cytometry, cell-surface spike"}
{"binder": "A19-46.1 (antibody, V domains shown) VH: QVQLVESGGGVVQPGRSLRLSCAASGFTLSSYGMHWVRQAPGKGLEWVAVISYDGSNKYYVDSVKGRFTISRDNSKNTLYLQMNSLRAEDTAVYYCARGWAYWELLPDYYYGMDVWGQGTTVTVSS VL: QTVVTQEPSFSVSPGGTVTLTCGLSSGSVSTAYFPSWYQQTPGQAPRTLIYGTNTRSSGVPDRFSGSILGNKAALTITGAQADDESDYYCVLYMGRGIVVFGGGTKLTVL", "values": [{"measurement": "binding, percent of D614G", "result": 0, "unit": "%"}]}
